In article PMC6537213, “Ellagic acid microspheres restrict the growth of Babesia and Theileria in vitro and Babesia microti in vivo” (Parasites & Vectors, 2019):

Legend:
Experiment in all cases: cytotoxicity assay (CCK-8)
Type in all cases: cell-based
[1] = test system: Madin-Darby bovine kidney (MDBK) cell line
Protocol: (§1) The MDBK cell line was maintained in 75 cm^2 culture flasks with Minimum Essential Medium Eagle (MEM; Gibco, Grand Island, NY, USA), while Dulbecco’s Modified Eagle’s Medium (DMEM; […] Each medium was supplemented with 10% fetal bovine serum, 0.5% penicillin/streptomycin (Gibco), and an additional 1% glutamine. Every 3 to 4 days, the medium was changed, and the cells were incubated until approximately 80% confluent. The cells were free from mycoplasma contamination after being checked by staining with 4,6-diamidino-2-phenylindole dihydrochloride (DAPI; Sigma-Aldrich, St. Louis). The cell detachment from the culture flask was done using TrypLE^TM Express (Gibco) after washing two times with Dulbecco’s phosphate-buffered saline (DPBS). Subsequently, viable cells were counted using a Neubauer Improved C-Chip (NanoEnTek Inc., Seoul, Korea) after staining with 0.4% trypan blue solution. The drug-exposure viability assay was performed in accordance with the recommendation for the Cell Counting Kit-8 (CCK-8; Dojindo, Kumamoto, Japan). Briefly, in a 96-well plate, 100 µl of cells at a density of 5 × 10^4 cells/ml were seeded per well and allowed to attach to the plate for 24 h at 37 °C in a humidified incubator with 5% CO2. Ten microliters of drug diluted two-fold were added to each well to a final concentration of 0.781 to 800 µM in triplicate. Wells with only a culture medium were used as blanks, while wells containing cells and a medium with 0.5% DMSO were used as positive controls. Drug exposure lasted for 24 h. After 24 h, 10 µl of CCK-8 was added, and the plate was further incubated for 3 h. Absorbance was measured at 450 nm using a microplate reader.

[2] = test system: mouse embryonic fibroblast (NIH/3T3) cell line
Protocol: as §1

[3] = test system: human foreskin fibroblast (HFF) cell line
Protocol: as §1

CC(=O)NCC(=O)O.CC(=O)NCC(=O)O.N=C(N)c1ccc(N=NNc2ccc(C(=N)N)cc2)cc1 [DA, diminazene aceturate]
Selective indices MDBK ([1]; EC50 MDBK / IC50 B. bovis): ˃ 285.7
Selective indices MDBK ([1]; EC50 MDBK / IC50 B. caballi): ˃ 4545
Selective indices MDBK ([1]; EC50 MDBK / IC50 B. divergens): ˃ 232.5
Selective indices MDBK ([1]; EC50 MDBK / IC50 T. equi): ˃ 476.2
Selective indices NIH/3T3 ([2]; EC50 NIH/3T3 / IC50 B. bovis): ˃ 285.7
Selective indices NIH/3T3 ([2]; EC50 NIH/3T3 / IC50 B. caballi): ˃ 4545
Selective indices NIH/3T3 ([2]; EC50 NIH/3T3 / IC50 B. divergens): ˃ 232.5
Selective indices NIH/3T3 ([2]; EC50 NIH/3T3 / IC50 T. equi): ˃ 476.2
Selective indices HFF ([3]; EC50 HFF / IC50 B. bovis): ˃ 285.7
Selective indices HFF ([3]; EC50 HFF / IC50 B. caballi): ˃ 4545
Selective indices HFF ([3]; EC50 HFF / IC50 B. divergens): ˃ 232.5
Selective indices HFF ([3]; EC50 HFF / IC50 T. equi): ˃ 476.2
